Results as given in paper PMC8206078, “Identification of pyrogallol as a warhead in design of covalent inhibitors for the SARS-CoV-2 3CL protease” (Nature Communications, 2021).
A number of entries come with more than one value. The list is limited to them. The source may hold further records. The records of an entry do not match, cause unknown; dose, time, organism, isomer or construct need not be as stated for each record.

Molecular target: SARS-CoV-2 3CLpro (Severe acute respiratory syndrome coronavirus 2, UniProt P0DTD1)
Assay: FRET-based protease assay, SARS-CoV-2 3CLpro
Type: biochemical
Conditions: 0.048828 µM; individual replicates of independent experiments

Q: How did the “inhibition ratio (%)” value turn out when `CC(C)CCOc1cc(O)c2c(=O)c(O)c(-c3cc(O)c(O)c(O)c3)oc2c1` was run?
A: Its value is -9.486% and -2.128%.
